Source: ChEMBL document CHEMBL3988442, “University of Dundee, Small-Polar-MMV Screening Library” (2021).

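Growth of Mycobacterium tuberculosis over 4 days (cholesterol / DPPC medium with tyloxapol); the read-out is not stated. Tested at 50 µM. The record gives no direction; compounds that gave an IC50 in retests scored well above the rest, so higher reads as more growth inhibition. Size under these conditions: about 69,000 compounds, about 370 of them at 50% or above in at least one test.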

The filed quantity is “Percent Effect” (%).
How 0% and 100% were set is not recorded. Most values in the screen are low, and negative values occur.
Many other results are left out here, so strong results are more common than in the screen.
Two or more numbers in one place are separate tests of the same structure; such repeats can differ widely.

SMILES	percent effect
O[C@@H]1CN(c2cnc3ccccc3n2)CC[C@H]1c1ccc2c(c1)OCO2	80.2
NC(=O)CN1CCC(C(=O)NCc2ccc3c(c2)OCCCO3)CC1	-13.59
CC(=O)Nc1ccc(SCC(O)COCc2ccccc2)cc1 (stereo not drawn)	6.236
COCCC1(CNC(=O)NCC2CCCS2)CCCC1 (stereo not drawn)	57.24
CCc1cc(C(=O)N2CCC(c3cc4ncccc4cn3)CC2)on1	16.47
CC(O)(CNc1ccc(Cl)c(C#N)n1)c1ccccc1 (stereo not drawn)	30.46
COc1ccc(NC(C)C(=O)NCCc2cccs2)cc1F (stereo not drawn)	-20.91
Cc1ccc(-n2nnc(C(=O)NCC3CCCCC3)n2)cc1	10.3
NC(=O)CSc1nccc(-c2ccc3c(c2)OCO3)n1	-32.14
Cc1n[nH]c(SCC(=O)NC(c2ccncc2)C(C)C)n1 (stereo not drawn)	-3.693
CC(C)c1cc(N(C)Cc2cc(C3CC3)on2)n2nccc2n1	8.091
CC(C)c1nccn1C1CCCN(C(=O)c2ccc3[nH]nnc3c2)C1 (stereo not drawn)	74.53
c1ccc(Oc2cccc(OC34CCCN(CC3)C4)c2)cc1 (stereo not drawn)	98.66
COC(=O)C(NC(=O)c1ccc(N(C)C)nc1)c1ccccc1 (stereo not drawn)	56
FC1(F)CCNCC12CCN(c1ncccn1)C2 (stereo not drawn)	51.6
COc1cccc(-c2ccc(CNC(=O)c3ccc(=O)n(C)c3)cc2)c1	13.53
COc1cc(C)sc1C(=O)NCCNc1ccccc1	50.84
O=C(NCCNc1ccc(C(F)(F)F)cn1)c1cncc(Br)c1	-20.31
CCNc1ncc(C(=O)N2CCOC(CCCC(C)C)C2)cn1 (stereo not drawn)	58.46 and 59.8
CCn1ncc(-c2cc(C(F)(F)F)nc(N3CCC(N)CC3)n2)c1C	22.77
O=C1CCN(C(=O)CCc2ccc(Cl)cc2Cl)CCN1	2.356 and -14.14
COc1ccc(CN2CCCC(Nc3cccc(F)c3)C2)cc1O (stereo not drawn)	55.05
O=C(CN1CCc2ccccc21)Nc1ccc(OC(F)F)cc1	16.63
CCn1nc(C)c2nc(C(C)C)nc(N(C)Cc3ccco3)c21	23.33
CN1CCC(CNC(=O)CCSc2ccc3c(c2)OCCO3)C1 (stereo not drawn)	24.86
COCc1nc2cc(NCc3ccc(C)o3)ccc2o1	9.304 and 16.05
O=C(Cn1cc(I)cn1)N1CCCCCC1	19.53
Cl.Fc1cccc(CN2CCC(c3cc4ncccc4cn3)CC2)c1F	29.99
Cc1ncc(-c2ccncc2)c(C2CCCN(C(=O)c3ccno3)C2)n1 (stereo not drawn)	-22.92 and -22.84
CC(C)(C(=O)NCC(=O)N1CCCC1)c1ccccc1F	0.9573
COc1cc(C(=O)NCCCc2ccccc2)on1	54.57
COc1ccc(C[C@H]2CN(c3nnc(C)s3)CC[C@@H]2OC)cc1.O=C(O)C(F)(F)F	57.7
COc1ccc(-c2noc(CN3CCc4cncnc4C3)n2)cc1	-1.186
CC1(NC(=O)CC2CCc3ccccc32)CCOCC1 (stereo not drawn)	90.9 and 5.78
O=C(NCC1CCOC1)N1CCN(Cc2ccc3c(c2)OCO3)CC1 (stereo not drawn)	14.11
CCc1nc(NC2CCCN(C(=O)C3CC3)C2)c2cnn(C)c2n1 (stereo not drawn)	-6.872
O=C(c1ccc(Br)s1)N1CCN(Cc2ccc(OC(F)(F)F)cc2)CC1	26.18
CC(C)CC(CO)NC(=O)NCc1csc(N(C)C)n1 (stereo not drawn)	12.4
O=C(O)C(F)(F)F.[H][C@@]12COC[C@@H](C(=O)Nc3cnccn3)[C@]1([H])CN(C1CCCC1)C2	-12.28 and -1.61
CC(C)OCCn1nnnc1Cc1ccc(Br)cc1	68.8
CS(=O)(=O)c1cccc(C(N)c2ccc(Cl)cc2)c1 (stereo not drawn)	6.655
Cc1cc(C(=O)NCc2ccco2)nn1C	-10.13
O=C(NCc1nnc2n1CCC2)N(Cc1ccc(F)cc1)C1CC1	-4.472
O=C(O)C(F)(F)F.OCCN1CCC2(CCc3cc(-c4ccoc4)ccc32)CC1	23.5
COc1cc(C#N)ccc1OC12CCCN(CC1)C2 (stereo not drawn)	-1.666
CC(C)C(=O)N1CCN(Cc2cnn(C)c2)CC2(CC(=O)N(C)C2)C1.O=C(O)C(F)(F)F (stereo not drawn)	-1.975
CCc1ccc(OCC(=O)N2CCN(CC)CC2)cc1	22
c1cncc(-c2ccc3c(c2)CCC32CCNCC2)c1	23.37
COc1ccc(-c2ccccc2CCN)c(OC)c1OC	26.01
CSC(C)C(=O)Nc1ccnn1-c1ccccc1C (stereo not drawn)	-15.41
Cc1nc(N2CCCC2)nc2c1CCN(Cc1ccoc1)CC2.O=C(O)C(F)(F)F	74.21 and 75.25
Cc1ccc(CN(CCCN(C)C)Cc2cnc(N(C)C)nc2)o1.O=C(O)CC(O)(CC(=O)O)C(=O)O	-10.87 and -15.12
Nc1cc(N2CCCC(COc3ccc(F)cc3)C2)nc(N)n1 (stereo not drawn)	12.36
CCCNc1ncc(CN2CCOC(Cc3cccc(F)c3)C2)cn1 (stereo not drawn)	-10.88
CCC1(CO)CCCN(C(=O)c2ccc(N3CCN(C)CC3)cc2)C1 (stereo not drawn)	23.87

The last 4 entries again:

| SMILES | percent effect |
|---|---|
| `Cc1ccc(CN(CCCN(C)C)Cc2cnc(N(C)C)nc2)o1.O=C(O)CC(O)(CC(=O)O)C(=O)O` | -10.87 and -15.12 |
| `Nc1cc(N2CCCC(COc3ccc(F)cc3)C2)nc(N)n1` (stereo not drawn) | 12.36 |
| `CCCNc1ncc(CN2CCOC(Cc3cccc(F)c3)C2)cn1` (stereo not drawn) | -10.88 |
| `CCC1(CO)CCCN(C(=O)c2ccc(N3CCN(C)CC3)cc2)C1` (stereo not drawn) | 23.87 |